From paper PMC5004841, “Development of a rapid phenotypic test for HCV protease inhibitors with potential use in clinical decisions” (Genetics and Molecular Biology, 2016)
Where two headings read alike, the source gives them in different places.

What was measured:
HCV NS3 V36M = conditions: cited from earlier work
HCV NS3 T54A = conditions: ref Sarrazin et al., 2007; cited from earlier work
[1] = system: HCV NS3-4A protease T54S + V170I; conditions: mutant T54S + V170I vs NS3 WT
Source text: (§1) The HCV genotype 1b NS3-4A protease domain from the plasmid pFKI389 Luc-ubi-neo/NS3-3'/ET (kindly provided by Dr. Ralf Bartenschlager) was amplified with the antisense primer 5'-[…]-3'containing a BamHI enzyme restriction site and the sense primer 5'-[…]-3' containing a HindIII enzyme restriction site. This fragment was cloned into a pET21dhis-TEV bacterial expression vector (a pET21d plasmid, which was modified to codify a 6x histidine tag followed by a cleavage site recognized by the Tobacco Etch virus nTev protease at the protein N-terminus). The single chain NS3-4A protease contains the protease domain (182 amino acids) and a 20-aa portion of the cofactor NS4A ([Abrahim-Vieira et al., 2014]).
(§2) Protein expressions were carried out as described previously with some modifications to simplify techniques and to perform the protocol in a smaller inoculum volume ([Abrahim-Vieira et al., 2014]). Transformed BL21 (λDE3) cells were grown at 37°C in 500 mL of LB medium containing […] ampicilin until an OD600 of 0.6-0.8 was reached. Then, cultures were induced with 0.5 mM isopropyl-1-thio-β-D-galactopyranoside (IPTG) and incubated with shaking at 25 °C for 4 h. Cells expressing NS3-4A constructs were harvested by centrifugation and stored at −80 °C. All resuspension steps were performed at 4 °C. Frozen pellets were resuspended in 12.5 mL of buffer A (Tris-HCl 50 mM pH 7.5; NaCl 300 mM; 2 mM β-mercaptoethanol; 10% glycerol; 0.5% Triton X-100). After resuspension, lysates were treated with lysozyme (5 mg/mL) for 1 h with stirring, subjected to 20 cycles of 15 s of sonication and 30 s of resting. Lysates were cleared by centrifugation at 12.000 g for 30 min and the supernatant filtered with 0.22 μM filter units (Nalgene). After filtration, supernatants were applied in 2 mL of Ni-NTA Agarose (Life Technologies) previously washed with distilled water and equilibrated with buffer A. Agarose resin was washed three times with buffer A and recombinant proteins were eluted with buffer A with 125, 250 and 500 mM imidazol (buffer B). […] Fractions were pooled and dialyzed overnight against buffer A with SnakeSkin Dialysis Tubing 10K MWCO (Thermo Scientific). Purified NS3-4A constructs were quantified with Micro BCA Protein Assay Kit (Thermo Scientific).
(§3) All enzyme inhibition assays were performed in nonbinding black surface 96-well plates (Corning).

HCV NS3-4A protease V36M = conditions: mutant V36M vs NS3 WT
Source text: as §1, §2, §3

HCV NS3-4A protease T54A = conditions: mutant T54A vs NS3 WT
Source text: as §1, §2, §3

[2] = system: HCV NS3-4A protease V158I; conditions: mutant V158I vs NS3 WT
Source text: as §1, §2, §3

[3] = system: HCV NS3-4A protease V170I; conditions: mutant V170I vs NS3 WT
Source text: as §1, §2, §3

CCC[C@H](NC(=O)[C@@H]1[C@H]2CCC[C@H]2CN1C(=O)[C@@H](NC(=O)[C@@H](NC(=O)c1cnccn1)C1CCCCC1)C(C)(C)C)C(=O)C(=O)NC1CC1 [Telaprevir]
fold change (HCV NS3 V36M; ref Jiang et al., 2013, Zhou et al., 2008): 5.4 fold
fold change (HCV NS3 V36M; ref Sarrazin et al., 2007): 3 fold
fold change (HCV NS3 T54A): 12 fold
fold change (mutant IC50 median/WT IC50 median) [1]: 2.7 fold
fold change (mutant IC50 median/WT IC50 median) (HCV NS3-4A protease V36M): 1.2 fold
fold change (mutant IC50 median/WT IC50 median) (HCV NS3-4A protease T54A): 9.6 fold
fold change (mutant IC50 median/WT IC50 median) [2]: 0.3 fold
fold change (mutant IC50 median/WT IC50 median) [3]: 1.6 fold
